PubChem BioAssay AID504761, Drosophila RNAi Screening Center | 2011
Purpose: 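Genome-wide fly cell screen for genes dengue virus requires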 (primary screen). Cell system: D.Mel-2 cells from Drosophila. Reagents: long dsRNA against Drosophila genes. Challenge: infection with dengue virus type 2; dose and infection time not stated. Read-out: 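Per well on two replicate plates, imaging gave the percent of cells positive for viral envelope protein, ranked by infection, and a nuclear count of cells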. Scale: infection score: higher = more virus-infected cells; cell count: higher = more cells in the well. Active means: 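Low infection ranks in the two replicates (chance level up to 0.065) followed by a retest with a 1.5-fold or larger significant decrease, p below 0.05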. Meaning of the calls: active = confirmed: knock-down lowers infection; inactive = not picked or not confirmed.
The deposit covers about 22,000 reagents; this is a random part of those with a known target gene and a result. Over the whole deposit, 116 (0.52%) were called active. 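Calls depend on retest data that are not deposited; infection was ranked per plate without normalising between plates; the unit of the infection score is not given.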 The raw values are shown without normalisation. A number with no mark means an inactive call. Names joined by + are all predicted targets of the reagent. Not all columns of the deposit are shown. No sequences are given here. Not stated in the record: the amount of reagent, the time to read-out.

| target gene | amplicon | infection score, replicate 1 | infection score, replicate 2 | cell count, replicate 1 |
| --- | --- | --- | --- | --- |
| Chro | DRSC11630 | 3.02 | 3.28 | 5029 |
| Bka | DRSC02757 | 9.22 | 9.29 | 5685 |
| Mal-A8 | DRSC07234 | 5.8 | 12.6 | 5744 |
| CG14439 | DRSC17931 | 3.65 | 4.69 | 6843 |
| wdb | DRSC14163 | 9.64 | 4.22 | 5402 |
| E(spl)m6-BFM | DRSC16993 | 17.5 | 3.79 | 5563 |
| CG1309 | DRSC08302 | 13.7 | 10.3 | 3686 |
| CG15909 | DRSC04977 | 5.43 | 21.3 | 6992 |
| tctn + B9d2 | DRSC03160 | 4.03 | 15.4 | 6256 |
| Mettl3 | DRSC15921 | 3.04 | 3.66 | 6318 |
| Mettl3 | DRSC27423 | 17.9 | 8.82 | 6437 |
| Taf13 | DRSC02106 | 6.85 | 26.2 | 1853 |
| Osi10b | DRSC12279 | 8.54 | 1.67 | 6019 |
| CG11980 | DRSC14456 | 19.9 | 11.7 | 5248 |
| hpRNA:CR32207 | DRSC09616 | 5.45 | 1.3 | 5853 |
| CG3618 | DRSC11746 | 5.06 | 11.2 | 6783 |
| Cog7 | DRSC16331 | 7.6 | 3.09 | 5371 |
| CG4455 | DRSC01983 | 1.53 | 3.71 | 6726 |
| CG4455 | DRSC21684 | 1.57 | 3.83 | 6182 |
| CG9921 | DRSC20220 | 12.5 | 7.6 | 6683 |
| Syx13 | DRSC09836 | 0.32 (active) | 0.22 | 6004 |
| tna | DRSC23236 | 1.63 | 3.46 | 6448 |
| tna | DRSC29530 | – | 22.7 | 352 |
| Sgf29 | DRSC04076 | 22.3 | 3.81 | 6765 |
| meep | DRSC07948 | 2.22 | 0.96 | 6039 |
| meep | DRSC25511 | 1.81 | 6.22 | 6347 |
| CG6454 | DRSC16044 | 3.36 | 3.73 | 6363 |
| CG6454 | DRSC24613 | 3.77 | 14.7 | 5705 |
| Acyp2 | DRSC15336 | 7.37 | 6.81 | 5743 |
| Or85f | DRSC16769 | 5.02 | 20 | 7151 |
| Tom40 | DRSC18796 | – | 4.12 | 397 |
| CG1998 | DRSC19829 | 1.72 | 10.5 | 6409 |
| RPA1 | DRSC16830 | 36.5 | 29.6 | 2164 |
| PolG1 | DRSC03621 | 1.54 | 1.41 | 6028 |
| PolG1 | DRSC29392 | 17.9 | – | 3044 |
| CG13045 | DRSC09926 | 0.61 | 4.75 | 6280 |
| CG13045 | DRSC25454 | 1.93 | 9.61 | 6179 |
| Ufd4 | DRSC02871 | 3.01 | 1.85 | 6440 |

Sorted by “infection score, replicate 1” (descending): some entries from above
| target gene | amplicon | infection score, replicate 1 | infection score, replicate 2 | cell count, replicate 1 |
| --- | --- | --- | --- | --- |
| CG11980 | DRSC14456 | 19.9 | 11.7 | 5248 |
| CG9921 | DRSC20220 | 12.5 | 7.6 | 6683 |
| Cog7 | DRSC16331 | 7.6 | 3.09 | 5371 |
| hpRNA:CR32207 | DRSC09616 | 5.45 | 1.3 | 5853 |
| CG3618 | DRSC11746 | 5.06 | 11.2 | 6783 |
| CG4455 | DRSC21684 | 1.57 | 3.83 | 6182 |
| CG4455 | DRSC01983 | 1.53 | 3.71 | 6726 |
| Syx13 | DRSC09836 | 0.32 (active) | 0.22 | 6004 |

Additional results follow.
| target gene | amplicon | infection score, replicate 1 | infection score, replicate 2 | cell count, replicate 1 |
| --- | --- | --- | --- | --- |
| CG42238 | DRSC03180 | 8.04 | 31.8 | 6316 |
| CG13728 | DRSC10056 | 6.45 | 7.69 | 6501 |
| CG31538 | DRSC12059 | 2.68 | 3.13 | 6409 |
| Spt-I | DRSC06860 | 8.99 | 13.9 | 6619 |
| Spt-I | DRSC26069 | 12.5 | 4.78 | 3430 |
| CG43328 | DRSC05640 | 0.45 | 0.14 | 6243 |
| ATbp | DRSC20906 | 2.43 | 1.26 | 4847 |
| ATbp | DRSC29661 | 11.2 | 19.4 | 1315 |
| CG32137 | DRSC10271 | 5.33 | 4.19 | 6174 |
| St1 | DRSC04504 | 4.78 | 16.3 | 6759 |
| St1 | DRSC25543 | 4.08 | 4.92 | 5778 |
| CG9106 | DRSC20154 | 7.34 | 1.15 | 6719 |
| CG9106 | DRSC24212 | 3.11 | 4.55 | 6406 |
| msd5 | DRSC08560 | 3.18 | 1.54 | 5310 |
| msd5 | DRSC26406 | 1.17 | 3.71 | 6233 |
| TTLL4B | DRSC00636 | 6.47 | 16.3 | 5829 |
| TTLL4B | DRSC28854 | – | – | 389 |
| CG8141 | DRSC16387 | 3.16 | 1.75 | 6388 |
| gskt | DRSC14056 | 0.4 | 0.12 | 6577 |
| gskt | DRSC25861 | 1.6 | 3.34 | 6137 |
